Test results published in patent US20240043504A1 (published 2024).

Experiments:
[1] = biological target: Human SARS Coronavirus Spike Protein (Receptor Binding Domain, His Tag) (Sino 40150-V08B2) (Human SARS Coronavirus, UniProt P59594 306-527); test: Luminex, supernatant
[2] = biological target: Human SARS Coronavirus Spike Protein (Receptor Binding Domain, His Tag) (Sino 40150-V08B2) (Human SARS Coronavirus, UniProt P59594 306-527); test: Luminex bead binding, supernatant
[3] = biological target: T1, MERS-CoV (NCoV/Novel coronavirus) Spike Protein fragment (RBD, aa 367-606, His Tag) (Sino 40071-V08B1) (MERS-CoV, UniProt K9N5Q8 367-606); test: Luminex bead binding, supernatant
T1 sequence: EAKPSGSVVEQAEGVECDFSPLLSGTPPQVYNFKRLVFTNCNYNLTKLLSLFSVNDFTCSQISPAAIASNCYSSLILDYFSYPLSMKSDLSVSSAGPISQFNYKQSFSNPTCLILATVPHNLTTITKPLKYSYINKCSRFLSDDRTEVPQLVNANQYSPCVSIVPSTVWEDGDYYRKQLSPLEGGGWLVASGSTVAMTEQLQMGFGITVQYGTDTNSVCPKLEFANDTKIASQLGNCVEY

[4] = biological target: T2, Human SARS Coronavirus Spike S1 Subunit Protein (His Tag) (Sino 40150-V08B1) (Human SARS Coronavirus, UniProt P59594 14-667); test: Luminex bead binding, supernatant
[5] = biological target: T2, Human SARS Coronavirus Spike S1 Subunit …; test: Luminex bead binding, supernatant; remark: listed apart in the source

B1: mAb10933 (antibody, V domains shown)
VH: QVQLVESGGGLVKPGGSLRLSCAASGFTFSDYYMSWIRQAPGKGLEWVSYITYSGSTIYYADSVKGRFTISRDNAKSSLYLQMNSLRAEDTAVYYCARDRGTTMVPFDYWGQGTLVTVSS
VL: DIQMTQSPSSLSASVGDRVTITCQASQDITNYLNWYQQKPGKAPKLLIYAASNLETGVPSRFSGSGSGTDFTFTISGLQPEDIATYYCQQYDNLPLTFGGGTKVEIKR
[1]
  MFI: 31 MFI

B2: mAb10987 (antibody, V domains shown)
VH: QVQLVESGGGVVQPGRSLRLSCAASGFTFSNYAMYWVRQAPGKGLEWVAVISYDGSNKYYADSVKGRFTISRDNSKNTLYLQMNSLRTEDTAVYYCASGSDYGDYLLVYWGQGTLVTVSS
VL: QSALTQPASVSGSPGQSITISCTGTSSDVGGYNYVSWYQQHPGKAPKLMIYDVSKRPSGVSNRFSGSKSGNTASLTISGLQSEDEADYYCNSLTSISTWVFGGGTKLTVLG
[2]
  Binding signal (MFI): 27 MFI
[3]
  Binding signal (MFI): 28 MFI

B3: mAb10996 (antibody, V domains shown)
VH: EVQMVESGGGLVQPGGSLRLSCAASGFTVSSNYMTWVRQAPGKGLEWVSVIYSGGSTYYADSVKGRFTISRHNSKNTLYLQMNSLRAEDTAVYYCARDGVSYGMDVWGQGTTVTVSS
VL: not shown
[4]
  Binding signal (MFI): 28 MFI

B4: mAb10970 (antibody, V domains shown)
VH: EVQLVESGGGLVQPGGSLRLSCAASGFTVSSNYMSWVRQAPGKGLEWVSVIYSGGSTYYADSVKGRFTISRDNSKNTLYLQMNRLRADDTAVYYCVRDPVGRYYYGMDVWGQGTTVTVSS
VL: not shown
[5]
  Binding signal (MFI): 19 MFI

Where two headings read alike, the source gives them in different places.
